Measured values from several laboratories, pooled; numbers as filed in NIAID ChemDB.

Common to all: tests in culture; species: HIV-2; cell line: MT-4; measure: EC50

ECn is the concentration giving n% inhibition of infection, replication or growth. Rows are shuffled and stem from different studies.

O=C(NCCc1ccccc1)Nc1nc2ccccc2s1 ; read by: RT activity ; result: <1 µg/mL
COc1cc(/C=C/c2nc(NC(=O)Nc3ccc([N+](=O)[O-])cc3)c3ccccc3n2)cc(OC)c1OC ; strain: ROD ; read by: MTT ; result: >1.72 µg/mL
Nc1[nH]c(=O)nc2nc(-c3ccccn3)c(-c3ccccn3)nc12 ; strain: ROD ; read by: cytopathic effect / MTT / absorbance ; result: >75.34 µM
COc1ccc(Nc2nnc(C(NS(=O)(=O)c3ccc(OC)cc3)C(C)C)s2)cc1 ; strain: ROD ; read by: MTT ; result: >21.03 µM
CCc1[nH]c(=S)n(Nc2cccc(C)c2)c1-c1ccccc1 ; strain: ROD ; read by: cytopathic effect / MTT ; result: >53.55 µM
NC1N=CNc2nc(-c3ccccn3)c(-c3ccccn3)nc21 ; strain: ROD ; read by: cytopathic effect / MTT / absorbance ; result: >12.1 µM
Cn1c(N2CCNCC2)c(N=Nc2ccc(Cl)cc2)c(N)nc1=O ; strain: ROD ; read by: MTT ; result: >3.03 µM
COc1cc(/C=C/c2nc(NC(=O)Nc3cccc(C)c3)c3ccccc3n2)cc(OC)c1OC ; strain: ROD ; read by: MTT ; result: >0.96 µg/mL
COc1ccccc1NC(=O)Nc1nc(NCCc2ccc(OC)c(OC)c2)nc(Oc2cc(=O)oc3ccccc23)n1 ; strain: ROD ; read by: MTT ; result: >25.48 µg/mL
O=C(NC(=S)NCCc1ccccc1Cl)c1csc(-c2ccccc2)n1 ; strain: ROD ; read by: MTT ; result: 1.79 µM
COc1ccc(CCNc2nc(NC(=O)Nc3ccccc3Cl)nc(Oc3cc(=O)oc4ccccc34)n2)cc1OC ; strain: ROD ; read by: MTT ; result: >51.15 µg/mL
Cc1cn([C@@H]2O[C@@H]3CN[C@@]4(OCCOc5ccccc5)CS(=O)(=O)O[C@@]34[C@H]2O[Si](C)(C)C(C)(C)C)c(=O)[nH]c1=O ; strain: ROD ; result: >5 µM
COc1cc(/C=C/c2nc(NC(=S)Nc3ccc([N+](=O)[O-])cc3)c3ccccc3n2)cc(OC)c1OC ; strain: ROD ; read by: MTT ; result: >3.87 µg/mL
Cn1c(-c2ccccc2F)cc(N)nc1=O ; strain: ROD ; read by: MTT ; result: >13.27 µM
COc1ccc(CCNc2nc(NC(=S)Nc3ccccc3)nc(Oc3cc(=O)oc4ccccc34)n2)cc1OC ; strain: ROD ; read by: MTT ; result: >15.45 µg/mL
CC(=O)N1C(=O)[C@@H](Cc2ccccc2)NC1=S ; read by: cytopathic effect / XTT ; result: >100 µg/mL
Cc1cn([C@@H]2O[C@@H]3CN[C@@]4(OCC5CCOC5)CS(=O)(=O)O[C@@]34[C@H]2O)c(=O)[nH]c1=O ; strain: ROD ; result: >250 µM
CCOC(=O)c1ccc(-c2cc(N)nc(=O)n2C)cc1 ; strain: ROD ; read by: MTT ; result: >75.23 µM
Clc1nccc2nc(-c3cccs3)cnc12 ; strain: ROD ; read by: cytopathic effect / MTT / absorbance ; result: >5.23 µM
CN1C(=O)[C@@H](Cc2ccccc2)NC1=S ; read by: cytopathic effect / XTT ; result: <10 µg/mL
CCCCO[C@]12CS(=O)(=O)O[C@@]13C(CN2)O[C@@H](n1cc(C)c(=O)[nH]c1=O)[C@@H]3O[Si](C)(C)C(C)(C)C ; strain: ROD ; result: >10 µM
CC(C)(C)[Si](C)(C)CCOCN1C=C(C#N)C(N)=NS1(=O)=O ; read by: cytopathic effect / MTT ; result: >400 µg/mL
COc1cc(/C=C/c2nc(NC(=S)Nc3ccccc3)c3ccccc3n2)cc(OC)c1OC ; strain: ROD ; read by: MTT ; result: >5.66 µg/mL
C#CCOCN1C=C(C#N)C(N)=NS1(=O)=O ; read by: cytopathic effect / MTT ; result: >400 µg/mL
COc1ccc(S(=O)(=O)NC(Cc2ccccc2)c2nnc(Nc3ccc(F)cc3)s2)cc1 ; strain: ROD ; read by: MTT ; result: >2.04 µM
O=C(NCCc1ccccc1)Nc1nc2ccc(F)cc2s1 ; read by: cytopathic effect / XTT ; result: <100 µg/mL
Fc1cccc(-c2nc(-c3nnc(C45CCC6CC(CC4C6)C5)o3)cs2)c1 ; strain: ROD ; read by: MTT ; result: >125 µM
O=C(NCCc1ccccc1)Nc1nc2c(Cl)cccc2s1 ; read by: RT activity ; result: <10 µg/mL
COc1ccc(NC(=S)Nc2nc(/C=C/c3cc(OC)c(OC)c(OC)c3)nc3ccccc23)cc1 ; strain: ROD ; read by: MTT ; result: >4.43 µg/mL
C#CCOCN1C=CC(=O)NS1(=O)=O ; read by: cytopathic effect / MTT ; result: >400 µg/mL
Clc1nccc2nc(-c3ccccn3)c(-c3ccccn3)nc12 ; strain: ROD ; read by: cytopathic effect / MTT / absorbance ; result: >67.36 µM
CC1=CC(=O)N(COCc2ccccc2)S(=O)(=O)N1COCc1ccccc1 ; read by: cytopathic effect / MTT ; result: >400 µg/mL
Cc1[nH]c(=S)n(Nc2cccc(Br)c2)c1-c1ccccc1 ; strain: ROD ; read by: cytopathic effect / MTT ; result: >44.24 µM
COc1ccc(-c2ccc(N=Nc3c(N)nc(=O)n(C)c3-c3ccc(OC)c(OC)c3)cc2)cc1OC ; strain: ROD ; read by: MTT ; result: >1.63 µM
COc1cc(/C=C/c2nc(NC(=S)Nc3ccc(Cl)cc3)c3ccccc3n2)cc(OC)c1OC ; strain: ROD ; read by: MTT ; result: >1.73 µg/mL
O=C(NCCc1ccccc1)Nc1nc(C(F)(F)F)cs1 ; read by: RT activity ; result: <1 µg/mL
Cn1c(N2CCCCC2)c(N=Nc2ccc(Cl)cc2)c(N)nc1=O ; strain: ROD ; read by: MTT ; result: >20.11 µM
Cc1cccc(Nn2cnc(C)c2-c2cccc(C#N)c2)c1 ; strain: ROD ; read by: cytopathic effect / MTT ; result: >44.7 µM
Brc1ccc(-c2nc(-c3nnc(C45CCC6CC(CC4C6)C5)o3)cs2)cc1 ; strain: ROD ; read by: MTT ; result: >110 µM
Cc1ccc(S(=O)(=O)NC(c2nnc(Nc3ccc(Br)cc3)s2)C(C)C)cc1 ; strain: ROD ; read by: MTT ; result: >6.49 µM
Cc1ncn(Nc2ccccc2)c1-c1ccccc1 ; strain: ROD ; read by: cytopathic effect / MTT ; result: >52.18 µM
COc1ccc(-c2ccc(N=Nc3c(N)nc(=O)n(C)c3N(Cc3ccccc3)Cc3ccccc3)cc2)cc1OC ; strain: ROD ; read by: MTT ; result: >2.29 µM
Fc1ccccc1-c1nc(-c2nnc(C34CCC5CC(CC3C5)C4)o2)cs1 ; strain: ROD ; read by: MTT ; result: >97.6 µM
CC(=O)OCCOCN1C=CC(N)=NS1(=O)=O ; read by: cytopathic effect / MTT ; result: >400 µg/mL
CCOC(=O)CNc1nc(NC(=O)Nc2cccc(C)c2)nc(Oc2cc(=O)oc3ccccc23)n1 ; strain: ROD ; read by: MTT ; result: >14.23 µg/mL
Cc1cn([C@H]2C=C[C@@H](CO)O2)c(=O)[nH]c1=O ; strain: LAV-2 ; read by: cytopathic effect ; result: 0.09 µM
Cc1ccccc1-c1nc(-c2nnc(C34CCC5CC(CC3C5)C4)o2)cs1 ; strain: ROD ; read by: MTT ; result: >10.5 µM
COc1ccc(-c2ccc(N=Nc3c(N)nc(=O)n(C)c3N3CCCCC3)cc2)cc1OC ; strain: ROD ; read by: MTT ; result: >18.15 µM
CCO[C@]12CS(=O)(=O)O[C@@]13C(CN2)O[C@@H](n1cc(C)c(=O)n(C)c1=O)[C@@H]3O[Si](C)(C)C(C)(C)C ; strain: ROD ; result: >50 µM
CC(C)C(NS(=O)(=O)c1ccc(Cl)cc1)c1nnc(Nc2ccc(Br)cc2)s1 ; strain: ROD ; read by: MTT ; result: >4.98 µM
CCOC(=O)c1ccc(-c2ccc(N=Nc3c(N)nc(=O)n(C)c3-c3ccc(C(=O)OCC)cc3)cc2)cc1 ; strain: ROD ; read by: MTT ; result: >28.24 µM
O=c1[nH]c(=O)n([C@H]2C[C@H](F)[C@@H](CO)O2)cc1Cl ; strain: LAV-2 ; read by: cytopathic effect ; result: 0.69 µM
COc1ccc(-c2csc3nc4nc(-c5ccccn5)c(-c5ccccn5)nc4c(=O)n23)cc1 ; strain: ROD ; read by: cytopathic effect / MTT / absorbance ; result: >18.99 µM
Cc1ccc(S(=O)(=O)NC(C)c2nnc(Nc3ccc(F)cc3)s2)cc1 ; strain: ROD ; read by: MTT ; result: >71.85 µM
Cc1nc(NC(=O)NCCc2ccccc2)sc1C ; read by: cytopathic effect / XTT ; result: <1 µg/mL
Cc1ncn(Nc2cccc(Cl)c2)c1C ; strain: ROD ; read by: cytopathic effect / MTT ; result: >214 µM

The first 6 rows once more:

O=C(NCCc1ccccc1)Nc1nc2ccccc2s1 ; read by: RT activity ; result: <1 µg/mL
COc1cc(/C=C/c2nc(NC(=O)Nc3ccc([N+](=O)[O-])cc3)c3ccccc3n2)cc(OC)c1OC ; strain: ROD ; read by: MTT ; result: >1.72 µg/mL
Nc1[nH]c(=O)nc2nc(-c3ccccn3)c(-c3ccccn3)nc12 ; strain: ROD ; read by: cytopathic effect / MTT / absorbance ; result: >75.34 µM
COc1ccc(Nc2nnc(C(NS(=O)(=O)c3ccc(OC)cc3)C(C)C)s2)cc1 ; strain: ROD ; read by: MTT ; result: >21.03 µM
CCc1[nH]c(=S)n(Nc2cccc(C)c2)c1-c1ccccc1 ; strain: ROD ; read by: cytopathic effect / MTT ; result: >53.55 µM
NC1N=CNc2nc(-c3ccccn3)c(-c3ccccn3)nc21 ; strain: ROD ; read by: cytopathic effect / MTT / absorbance ; result: >12.1 µM